Results of unrelated studies side by side (data: NIAID ChemDB).

Shared fields: target-level tests

Inhibition is in % at the dose shown (toxicity tests: loss of growth or viability). Lines come from different laboratories, so protocols vary. ICn: concentration for n% inhibition. Blank or dashed fields: not listed here.

compound | read-out | target | tested at | species | read by | strain | result
CCOc1cc(C)nc(NC(=S)NC(=O)c2ccc(-c3ccccc3Cl)o2)n1 | IC50 | Neuraminidase |  | Influenza A virus |  | H1N1 | 11 µM
CC(N)C12CC3CC(CC(C3)C1)C2 | inhibition | Virion transcriptase | 100 µg/mL | Influenza A virus | nucleotide incorporation | A/PR/1/74 rimantadine-susceptible | 51%
COCON1C(=O)[C@H]([C@H](O)C(C)C)N(Cc2ccc(OC)cc2)[C@@H](Cc2ccccc2)C1=O | IC50 | Transcriptase |  | Influenza A virus |  |  | >200 µM
CC(C)(C)NC(=O)NC(=S)NC(=O)c1c(F)cccc1F | IC50 | Neuraminidase |  | Influenza A virus |  | H1N1 | 4.2 µM
COCON1C(=O)[C@H]([C@H](O)c2ccc(F)cc2)N(Cc2ccc(OC)cc2)[C@@H](Cc2ccccc2)C1=O | IC50 | Transcriptase |  | Influenza A virus |  |  | >200 µM
COc1cc(Cl)nc(NC(=S)NC(=O)c2ccc(-c3ccccc3Cl)o2)n1 | IC50 | Neuraminidase |  | Influenza A virus |  | H1N1 | 18.7 µM
NC(N)=N[C@H]1C=C(C(=O)O)O[C@@H]([C@H](O)[C@H](O)CO)C1 | IC50 | Influenza A sialidase |  | Influenza A virus |  | AICHI | 130 µM
COCON1C(=O)/C(=C/c2ccccc2F)N(Cc2ccc(OC)cc2)[C@@H](CC(C)C)C1=O | IC50 | Transcriptase |  | Influenza A virus |  |  | >200 µM
CCC(CC)[C@H](NC(C)=O)[C@@H]1[C@H](O)[C@@H](C(=O)O)C[C@H]1N=C(N)N | IC50 | Influenza virus neuraminidase |  | Influenza B virus |  |  | 0.00136 µM
COc1cc(OC)nc(NC(=S)NC(=O)c2ccc(-c3ccccc3Cl)o2)n1 | IC50 | Neuraminidase |  | Influenza A virus |  | H1N1 | >20 µM
CCC(CC)Nc1cc(C(=O)O)ccc1N1C(=O)CCC1(CO)CN=[N+]=[N-] | IC50 | Neuraminidase |  | Influenza B virus |  | B/LEE | >670 µM
COCON1C(=O)[C@H]([C@H](OS(C)(=O)=O)c2ccc(F)cc2)N(Cc2ccc(OC)cc2)[C@@H](CC(C)C)C1=O | IC50 | Transcriptase |  | Influenza A virus |  |  | >200 µM
CC(C)(C)NC(=O)NC(=S)NC(=O)c1ccccc1 | IC50 | Neuraminidase |  | Influenza A virus |  | H1N1 | 1.1 µM
CCC(CC)Nc1cc(C(=O)O)ccc1N1C(=O)CCC1(CO)CCN | IC50 | Neuraminidase |  | Influenza B virus |  | B/LEE | >1000 µM
COCON1C(=O)[C@H]([C@H](O)c2cccc(F)c2)N(Cc2ccc(OC)cc2)[C@@H](CC(C)C)C1=O | IC50 | Transcriptase |  | Influenza A virus |  |  | >200 µM

The last 2 rows once more:

compound,read-out,target,tested at,species,read by,strain,result
CCC(CC)Nc1cc(C(=O)O)ccc1N1C(=O)CCC1(CO)CCN,IC50,Neuraminidase,,Influenza B virus,,B/LEE,>1000 µM
COCON1C(=O)[C@H]([C@H](O)c2cccc(F)c2)N(Cc2ccc(OC)cc2)[C@@H](CC(C)C)C1=O,IC50,Transcriptase,,Influenza A virus,,,>200 µM